A mixed list of measured activities; the numbers were collected in NIAID ChemDB.

Common to all: tests in culture

Inhibition is in % at the dose shown (toxicity tests: loss of growth or viability).

structure | species | strain | cell line | read by | endpoint | tested at | value
O=C(Nc1cc(S(=O)(=O)O)cc2cc(S(=O)(=O)O)cc(O)c12)c1ccccc1 | Adenovirus | TYPE 3 | Human amnion AV3 cells | cytopathic effect | inhibition | 5 µg/mL | 0%
Nc1nc2c(ncn2COCCO)c(=O)[nH]1 | Varicella zoster virus | YS | HELF | plaque count | inhibition | 0.1 µg/mL | 0%
CCOC(=O)/C=C/[C@H](C[C@@H]1CCNC1=O)NC(=O)[C@@H](CC(=O)[C@@H](NC(=O)c1cc(C)on1)C(C)C)Cc1ccc(F)cc1 | Rhinovirus | Isolate 7 | OHIO HELA-I | cytopathic effect / visual reading | EC50 | - | 0.02 µg/mL
Cc1cn([C@@H]2O[C@H](CO)[C@@H](O)[C@@H]2F)c(=O)nc1N | Varicella zoster virus | YS | HELF | plaque count | inhibition | 0.01 µg/mL | 78%
Oc1ccccc1N=Cc1ccc2c(c1)OCO2 | Cryptococcus neoformans | VM-MCMMPI | - | broth dilution | MIC | - | 5.7 µg/mL
O=S(=O)(O)c1cccc2c(O)cccc12 | Herpes simplex virus | - | Human conjunctiva cells | cytopathic effect | inhibition | 10 µg/mL | 0%
Cc1cn([C@@H]2O[C@H](CO)[C@@H](O)[C@@H]2O)c(=O)[nH]c1=O | Varicella zoster virus | OKA | HELF | plaque count | inhibition | 1 µg/mL | 100%
Oc1ccccc1N=Cc1cccc(O)c1O | Cryptococcus neoformans | WP | - | - | MIC99 | - | 2.8 µg/mL
O=C1C(c2[nH]c3ccc(S(=O)(=O)O)cc3c2O)=Nc2ccc(S(=O)(=O)O)cc21 | Adenovirus | TYPE 3 | Human amnion AV3 cells | cytopathic effect | inhibition | 10 µg/mL | 0%
O=c1[nH]c(=O)n([C@H]2C[C@H](O)[C@@H](CO)O2)cc1/C=C/Br | Varicella zoster virus | Asahikawa | HELF | plaque count | inhibition | 0.001 µg/mL | 0%
CCC(CC)[C@H](NC(C)=O)[C@@H]1[C@H](O)[C@@H](C(=O)O)C[C@H]1N=C(N)N | Influenza A virus | Influenza A/Washington/897/80 (H3N2) | MDCK | - | EC50 | - | <0.01 µM
C=CCc1ccc(OC)c(OC)c1 | Candida tropicalis | 2509 | - | turbidity | MIC90 | - | 340 µg/mL
Oc1cccc(C=Nc2ccccc2O)c1 | Cryptococcus gattii | 547/OTTI-97-PI-10 | - | - | MIC99 | - | 8 µg/mL
CCOC(=O)c1ccc(OCCC2CCN(c3ccc(C)nn3)CC2)cc1 | Rhinovirus | thompson (ICAM-1 receptor group 6 | KB | neutral red | EC50 | - | 0.054 µM
O=[N+]([O-])c1ccc(C=Nc2ccccc2O)cc1 | Cryptococcus neoformans | C-3-1 | - | - | MIC99 | - | 8 µg/mL
O=S(=O)([O-])c1cc(NS(=O)(=O)c2ccccc2)c2c(S(=O)(=O)[O-])cc(S(=O)(=O)[O-])cc2c1 | Rhinovirus | - | Human embryonic lung cells | cytopathic effect | inhibition | 10 µg/mL | 50%
CCOC(=O)c1c(C)nc(OCCCNc2ccnc3cc(Cl)ccc23)nc1-c1ccccc1 | Cryptococcus gattii | L 27/01 | - | - | MIC99 | - | 32 µg/mL
Nc1ccc(S(=O)(=O)[O-])c2c(S(=O)(=O)[O-])ccc(O)c12 | Adenovirus | TYPE 3 | Human embryonic lung cells | cytopathic effect | inhibition | 10 µg/mL | 20%
Oc1ccccc1N=Cc1ccccc1 | Cryptococcus gattii | L 27/01 | - | - | MIC99 | - | 32 µg/mL
Nc1nc(=O)n([C@@H]2O[C@H](CO)[C@@H](O)[C@@H]2F)cc1I | Varicella zoster virus | YS | HELF | plaque count | inhibition | 0.01 µg/mL | 10%
O=S(=O)([O-])c1ccc2c(S(=O)(=O)[O-])cc(S(=O)(=O)[O-])cc2c1 | Adenovirus | TYPE 3 | Human embryonic lung cells | cytopathic effect | inhibition | 10 µg/mL | 0%

Repeating the first 2 entries:

structure,species,strain,cell line,read by,endpoint,tested at,value
O=C(Nc1cc(S(=O)(=O)O)cc2cc(S(=O)(=O)O)cc(O)c12)c1ccccc1,Adenovirus,TYPE 3,Human amnion AV3 cells,cytopathic effect,inhibition,5 µg/mL,0%
Nc1nc2c(ncn2COCCO)c(=O)[nH]1,Varicella zoster virus,YS,HELF,plaque count,inhibition,0.1 µg/mL,0%

Rows are shuffled and stem from different studies. Blank or dashed fields: not listed here. A number after MIC or MFC names an inhibition level or a share of isolates. ECn: concentration that inhibits the pathogen or its effect by n%.